Compound potency records, mixed from different reports. Data source: NIAID ChemDB in PubChem.

Shared fields: growth or infection tests; species: Candida albicans; measure: inhibition

Conditions beyond the fields shown may differ between rows. Blank or dashed fields: not listed here. Percent inhibition refers to the dose given; in toxicity tests it is the harm to the cells.

compound | strain or isolate | mutations | read by | tested at | result
CC(=O)OC[C@H]1O[C@@H](O[C@@H]2[C@@H](N=[N+]=[N-])[C@H](O)[C@H](O)[C@H]3OC(C)(C)O[C@H]32)[C@H](OC(C)=O)[C@@H](OC(C)=O)[C@H]1OC(C)=O | ATCC 10231 |  | broth dilution / turbidity | 31.25 µg/mL | 14.13%
CCOc1ccc(SCC#CCN2CCCCC2)cc1 | CNCM 1180-79 |  |  | 78 µg/mL | 50%
COc1ccc(C(C(Cc2ccc(Cl)cc2Cl)c2ccc(Cl)cc2)n2cncn2)cc1 | 28 strains |  |  | 256 µg/mL | 18%
Cc1cc(C=Nc2ccc(N=Cc3cc(C)cc(/C=N/Nc4nc5ccccc5s4)c3O)cc2)c(O)c(/C=C/Nc2nc3ccccc3s2)c1 |  |  | turbidity | 50 µg/mL | 17.57%
CC(C)(O)c1cn(-c2cccc3ccccc23)nn1 | URM 4606 |  | broth dilution | 2048 µg/mL | 0%
CCCCOc1ccc(SCC#CCN2CCN(C)CC2)cc1 | CNCM 1180-79 |  |  | 78 µg/mL | 75%
COc1ccc(C(C(Cc2ccc(Cl)cc2Cl)c2ccc(Cl)cc2)n2cnnc2)cc1 | 28 strains |  |  | 256 µg/mL | 0%
CC(C)(O)c1cn(-c2ccc([N+](=O)[O-])cc2)nn1 | URM 4386 |  | broth dilution | 2048 µg/mL | 0%
NCCCC[C@H](NC(=O)[C@H](CCCN=C(N)N)NC(=O)[C@H](CCCN=C(N)N)NC(=O)[C@H](CCCCN)NC(=O)[C@H](CCCCN)NC(=O)[C@@H](N)CCCCN)C(=O)N[C@@H](CCCN=C(N)N)C(=O)O | ATCC 10231 |  |  | 50 µM | 0%
CCCCOc1ccc(SCC#CCN2CCCCC2)cc1 | CNCM 1180-79 |  |  | 78 µg/mL | 50%
CC(C)(O)c1cn(-c2ccc3ccccc3c2)nn1 | URM 4387 |  | broth dilution | 2048 µg/mL | 0%
C[C@H]1[C@H](O)[C@@H](C)/C=C/C=C/C=C/C=C/C=C/C=C/C=C/[C@H](O[C@@H]2O[C@H](C)[C@@H](O)[C@H](N)[C@@H]2O)C[C@@H]2O[C@](O)(C[C@@H](O)C[C@@H](O)CC[C@H](O)[C@@H](O)C[C@@H](O)CC(=O)O[C@H]1C)C[C@H](O)[C@H]2C(=O)O | ATCC 90028 | efg1 | broth dilution | 1 µg/mL | 100%
O=C(Cn1ccnc1)c1ccc(F)cc1F | Fluconazole-resistant |  | broth dilution | 80 µg/mL | 27%
CCCOc1ccc(SCC#CI)cc1 | CNCM 1180-79 |  |  | 78 µg/mL | 100%
CCC(c1ccc(Cl)cc1)C(O)c1ccc(OC)cc1 | 28 strains |  |  | 256 µg/mL | 0%
Cc1ccc(-n2cc(C(C)(C)O)nn2)cc1C | URM 4386 |  | broth dilution | 2048 µg/mL | 0%
OC(Cn1cncn1)c1ccc(F)cc1F | Fluconazole-resistant |  | broth dilution | 100 µg/mL | 44%
COc1ccc(C(=O)Cc2ccc(Cl)cc2)cc1 | 28 strains |  |  | 256 µg/mL | 0%
O=C(Cn1cncn1)c1ccc([N+](=O)[O-])cc1 | Fluconazole-resistant |  | broth dilution | 80 µg/mL | 16%
COc1ccc(CC(c2ccc(OC)cc2)n2cncn2)cc1 | 28 strains |  |  | 256 µg/mL | 86%

The first 2 rows once more:

compound,strain or isolate,mutations,read by,tested at,result
CC(=O)OC[C@H]1O[C@@H](O[C@@H]2[C@@H](N=[N+]=[N-])[C@H](O)[C@H](O)[C@H]3OC(C)(C)O[C@H]32)[C@H](OC(C)=O)[C@@H](OC(C)=O)[C@H]1OC(C)=O,ATCC 10231,,broth dilution / turbidity,31.25 µg/mL,14.13%
CCOc1ccc(SCC#CCN2CCCCC2)cc1,CNCM 1180-79,,,78 µg/mL,50%